Compound potency records, mixed from different reports. Data source: NIAID ChemDB in PubChem.

All rows: whole-cell or culture tests; species: Mycobacterium tuberculosis

Inhibition is in % at the dose shown (toxicity tests: loss of growth or viability). MIC bound: limit read from a one-dose screen. Blank or dashed fields: not listed here. A number after MIC or MFC names an inhibition level or a share of isolates. Conditions beyond the fields shown may differ between rows. ECn: concentration that inhibits the pathogen or its effect by n%.

structure | cells | endpoint | strain or isolate | tested at | method | result
CCCCCCCCCCCCCCC/C=C\C(=O)N(O)CCCC[C@H](NC(=O)[C@@H]1COC(c2ccccc2O)=N1)C(=O)O[C@@H](C)CC(=O)N[C@H]1CCCCN(O)C1=O | - | inhibition | H37Rv | 12.5 µg/mL | - | >99%
C/C(=N\Nc1nc(-c2cccs2)cs1)c1cccnc1 | - | EC90 | H37Rv (ATCC 27294) | - | resazurin | >100 µg/mL
CN1C(=O)[C@@]2(c3ccccc31)N1CCCC1[C@@H](c1ccc(Br)cc1)[C@]21C(=O)/C(=C/c2ccc(Br)cc2)c2ccccc21 | - | MIC | - | - | visual reading | 25 µg/mL
CCCCOC(=S)SCN1C(=O)c2ccccc2S1(=O)=O | - | inhibition | H37Rv | 6.25 µg/mL | - | 99%
Nc1c(-c2c(Cl)cccc2Cl)[n+]([O-])c2ccccc2[n+]1[O-] | - | MIC bound | H37Rv | - | BACTEC | ≤12.5 µg/mL
Oc1[nH]c2ccc(OC(F)(F)F)cc2c1N=NC(=S)Nc1ccc(F)cc1 | - | EC90 | H37Rv | - | broth dilution / resazurin | 1.546 µg/mL
O=C1CS[C@H](c2ccc3c(c2)OCO3)N1c1nc(N2CCOCC2)n[nH]1 | - | MIC | H37Rv | - | resazurin | <1 µg/mL
CC(C)c1cc2c(cc1O)[C@@]1(C)CCCC(C)(C)C1CC2 | - | MIC | H37Rv | - | - | >12.5 µg/mL
O=S(=O)(Nc1ccc(F)cc1)c1nnc2sc3ccccc3n12 | - | MIC | H37Rv | - | - | 50 µg/mL
C#CCOc1c2c(c3c(CCC)cc(=O)oc3c1C(=O)CC)OC(C)(C)C=C2 | - | MIC | H37Ra | - | - | 128 µg/mL
COc1ccc2[nH]c(C(=O)O)c(/C=N\NC(N)=S)c2c1 | - | MIC | H37Rv | - | broth dilution | 0.2 µg/mL
O=C1/C(=C/c2ccc(Br)cc2)c2ccccc2[C@]12[C@@H](c1ccc(Br)cc1)C1CCCN1[C@]21C(=O)Nc2ccc(Cl)cc21 | - | MIC | - | - | visual reading | 6.25 µg/mL
O=C(NNC(=O)c1ccc(Cl)cc1Cl)c1ccncc1 | - | MIC | H37Rv (ATCC 27294) | - | - | 15 µg/mL
CCCCCCCCC(OC)C(=O)O | - | MIC | H37Rv | - | - | 240 µM
C/C=C1\CN2CCc3c([nH]c4ccccc34)C2CC1C(Cc1c[n+]2c(c3[nH]c4ccccc4c13)CC1C(C(=O)OC)=COC(C)C1C2)C(=O)OC | - | MIC bound | H37Rv | - | BACTEC | >12.8 µg/mL
Cc1ccc(NC(=S)N=Nc2c(O)n(CN3CCOCC3)c3ccc(OC(F)(F)F)cc23)cc1 | - | EC90 | H37Rv | - | broth dilution / resazurin | >100 µg/mL
CC1S[C@H](c2ccc(Cl)cc2)N(c2nc(N3CCN(C)CC3)n[nH]2)C1=O | - | MIC | H37Rv | - | resazurin | 2 µg/mL
O=C(CC(=O)C(F)(F)F)c1csc2ccccc12 | - | inhibition | H37Rv | 6.25 µg/mL | - | 5%
O=S(=O)(Nc1ccc(F)c(Cl)c1)c1nnc2sc3ccccc3n12 | - | MIC | H37Rv | - | - | 50 µg/mL
CC1(C)O[C@H]2[C@@H]([C@@H](O)Cn3cnc([N+](=O)[O-])c3)OC[C@H]2O1 | - | MIC | H37Rv | - | - | 12.5 µg/mL
CCNC(=S)N=Nc1c(O)n(CN2CCOCC2)c2ccc(OC(F)(F)F)cc12 | - | EC90 | H37Rv | - | broth dilution / resazurin | >100 µg/mL
O=C(NNC(=O)c1ccc(F)cc1Cl)c1ccncc1 | - | MIC | H37Rv (ATCC 27294) | - | - | 10 µg/mL
CN1C(=O)[C@@]2(c3ccccc31)N1CCCC1[C@H](c1ccc(Cl)cc1)[C@@]21C(=O)/C(=C/c2ccc(Cl)cc2)c2ccccc21 | - | MIC | - | - | visual reading | 12.5 µg/mL
CC(=O)OCC1=C[C@@H](OCCC(C)C)O[C@H](COC(=O)C(C)(C)C)C1=O | - | MIC | H37Rv | - | BACTEC / radiometric | >50 µg/mL
NC(C/C=C/C(N)(CF)C(=O)O)C(=O)O | - | MIC | - | - | - | >100 µg/mL
CCNC(=S)S | - | MIC bound | H37Rv | - | BACTEC | >12.5 µg/mL
O=C1c2ccccc2S(=O)(=O)N1CSC(=S)N1CCOCC1 | - | MIC | H37Rv | - | - | 1.56 µg/mL
CC(=O)c1ccc(O)c(-c2csc(N/N=C(\C)c3ccncc3)n2)c1 | - | EC90 | H37Rv (ATCC 27294) | - | resazurin | >100 µg/mL
Nc1nc(N)c2nc3c4ccccc4c4ccccc4c3nc2n1 | - | MIC | H37Rv | - | BACTEC | 6.25 µg/mL
CCn1cc(C(=O)O)c(=O)c2cc(F)c(N3CCN(c4nnc(SCC(=O)c5ccc(N)cc5)s4)C(C)C3)c(OC)c21 | - | MIC90 | H37Rv | - | broth dilution | 10 µg/mL
CC(O)C1(O)C(O)CC(OC2c3cc4c(c(O)c3[C@@H]3C[C@@]2(C)OC32C=c3cc[nH]c3=N2)C(=O)c2cccc(O)c2C4=O)OC1C | VERO | MIC | H37Rv | - | - | 0.8 µg/mL
CN(CCCC12CCC(c3ccccc31)c1ccccc12)C(=S)SCN1C(=O)c2ccccc2S1(=O)=O | - | inhibition | H37Rv | 6.25 µg/mL | - | 6%
O=C1/C(=C/c2ccc(Cl)cc2)c2ccccc2[C@]12[C@@H](c1ccc(Cl)cc1)C1CCCN1[C@]21C(=O)Nc2ccc(Cl)cc21 | - | MIC | - | - | visual reading | 1.56 µg/mL
Cc1nc2c(=O)[nH]n(C)c2nc1C | - | inhibition | H37Rv | 12.5 µg/mL | BACTEC | 6%
CC1(C)O[C@H]2[C@@H]([C@H]3Cn4cc([N+](=O)[O-])nc4O3)OC[C@H]2O1 | - | MIC | H37Rv | - | - | 6.25 µg/mL
C[n+]1c(-c2ccc(/C=N/NC(=O)C(=O)N/N=C/c3ccc(-c4cn5ccccc5[n+]4C)cc3)cc2)cn2ccccc21.[Br-].[Br-] | - | MIC bound | H37Rv | - | BACTEC | >12.5 µg/mL
N/C(=N\N=C\c1cccc(Br)c1)c1ccncc1 | - | MIC | Isolate 1751 ofloxacin-resistant | - | - | 16 µg/mL
Cn1c(O)c(N=NC(=S)Nc2ccc(Cl)cc2)c2cc(OC(F)(F)F)ccc21 | - | EC90 | H37Rv | - | broth dilution / resazurin | >100 µg/mL
C[n+]1c(-c2ccc(/C=N/NC(=O)c3cc(O)c(C(=O)N/N=C/c4ccc(-c5cn6ccccc6[n+]5C)cc4)cc3O)cc2)cn2ccccc21.[Br-].[Br-] | - | MIC bound | H37Rv | - | BACTEC | >12.5 µg/mL
Cc1cc(-c2cc3c(cc2F)c(=O)c(C(=O)O)cn3C2CC2)cc(C)n1 | - | MBC | 1620-6 | - | - | 2 µg/mL
CC(=O)N1C/C(=N\NC(N)=S)c2ccccc21 | - | MIC | H37Rv | - | broth dilution | 0.2 µg/mL
COc1ccc([C@H]2SC(C)C(=O)N2c2nc(N3CCOCC3)n[nH]2)cc1OC | - | MIC | H37Rv | - | resazurin | 16 µg/mL
CC(=O)NC[C@H]1CN(c2ccc(-c3ccc(CNCc4cn[nH]n4)cc3)c(F)c2)C(=O)O1 | - | EC90 | H37Rv | - | resazurin | 0.03 µg/mL
CCn1cc(C(=O)O)c(=O)c2cc(F)c(N3CCN(c4nnc(SCC(=O)c5ccc([N+](=O)[O-])cc5)s4)C(C)C3)c(OC)c21 | - | MIC90 | H37Rv | - | broth dilution | 1.5 µg/mL
CN1CCN(C(=S)SCN2C(=O)c3ccccc3S2(=O)=O)CC1 | - | MIC | H37Rv | - | - | 6.25 µg/mL
O=C1/C(=C/c2ccc(Cl)cc2)c2ccccc2[C@@]12[C@H](c1ccc(Cl)cc1)C1CCCN1[C@]21C(=O)Nc2ccccc21 | - | MIC | - | - | visual reading | >25 µg/mL
Cc1ccc([C@H]2SC(C)C(=O)N2c2nc(N3CCOCC3)n[nH]2)cc1 | - | MIC | H37Rv | - | resazurin | 1.56 µg/mL
N/C(=N\N=C\c1ccccc1Cl)c1ccncc1 | - | MIC | Isolate 1751 ofloxacin-resistant | - | - | 8 µg/mL
O=C(O)CNC(=O)C1NC(C(F)(F)F)(C(F)(F)F)OC1(C(F)(F)F)C(F)(F)F | - | inhibition | H37Rv | 12.5 µg/mL | BACTEC | -6%
CCCc1cc(=O)oc2c(C(=O)CC)c(OCC(=O)OCC)c3c(c12)OC(C)(C)CC3 | - | MIC | H37Ra | - | - | >128 µg/mL
O=C(NNC(=O)c1cccc(Cl)c1Cl)c1ccncc1 | - | MIC | H37Rv (ATCC 27294) | - | - | 15 µg/mL
CC1(C)O[C@H]2[C@@H]([C@@H]3Cn4cc([N+](=O)[O-])nc4O3)OC[C@H]2O1 | - | MIC | H37Rv | - | - | 12.5 µg/mL
Cc1ccc([C@H]2SC(C)C(=O)N2c2nc(N3CCN(C)CC3)n[nH]2)cc1 | - | MIC | H37Rv | - | resazurin | <1 µg/mL
C[C@@H]1CN(c2c(F)c(N)c3c(=O)c(C(=O)O)cn(C4CC4)c3c2F)C[C@H](C)N1 | - | MIC90 | - | - | - | 0.2 µg/mL
O=C1c2c(O)ccc(O)c2C(=O)c2c(NCCCCO)ccc(NCCCCO)c21 | - | inhibition | H37Rv | 12.5 µg/mL | BACTEC | -11%
CCCc1cc(=O)oc2c(C(=O)CC)c(O)c3c(c12)OC(C)(C)C=C3 | - | MIC | H37Ra | - | - | 128 µg/mL
CCn1cc(C(=O)O)c(=O)c2cc(F)c(N3CCN(c4nnc(SCC(=O)c5ccc(F)cc5)s4)C(C)C3)c(OC)c21 | - | MIC90 | H37Rv | - | broth dilution | 5 µg/mL
CC1(C)O[C@H]2[C@@H]([C@H]3Cn4cc([N+](=O)[O-])nc4S3)OC[C@H]2O1 | - | MIC | H37Rv | - | - | 25 µg/mL
O=C(NNC(=O)c1cc(Cl)ccc1[N+](=O)[O-])c1ccncc1 | - | MIC | H37Rv (ATCC 27294) | - | - | 0.5 µg/mL
O=S(=O)(Nc1nccs1)c1nnc2sc3ccccc3n12 | - | MIC | H37Rv | - | - | 50 µg/mL
O=C1CS[C@H](c2ccc(Cl)cc2)N1c1nc(N2CCOCC2)n[nH]1 | - | MIC | H37Rv | - | resazurin | 1.56 µg/mL
Cc1ccc2c(c1)c(N=NC(=S)NCc1ccccc1)c(O)n2C | - | EC50 | H37Rv | - | broth dilution / resazurin | >100 µg/mL
CC(C)NCCNC(C)C | - | MIC | H37Rv | - | - | 8 µg/mL
C=C(C)COc1cc2c(c3oc(=O)cc(CCC)c13)C(O)[C@H](C)[C@@H](C)O2 | - | MIC | H37Ra | - | - | >128 µg/mL
O=[N+]([O-])c1ccc(C2=NOC(c3ccc(N4CCN(Cc5ccccc5)CC4)cc3)C2)o1 | - | MIC | UT18 | - | - | 0.0008 µg/mL
CC(=O)N1C(C(=O)NN2CCOCC2)CSC1c1ccccc1 | - | MIC bound | H37Rv | - | resazurin | >6.25 µg/mL
C#CCOc1cc2c(c3oc(=O)cc(CCC)c13)C(O)[C@H](C)[C@@H](C)O2 | - | MIC | H37Ra | - | - | >128 µg/mL
CC1S[C@H](c2ccc3c(c2)OCO3)N(c2nc(N3CCOCC3)n[nH]2)C1=O | - | MIC | H37Rv | - | resazurin | 4 µg/mL
CCN1C[C@]2(C)CC[C@H](OC)[C@]34C1[C@H]([C@@H](O)[C@H]23)[C@@]1(O)CC[C@@H]2C[C@@H]4[C@@H]1C(=O)O2 | - | MIC bound | H37Rv | - | BACTEC | >12.5 µg/mL
NC(N)=NC[C@H]1C[C@@H](C(=O)O)C[C@@H]1N=C(N)N | - | MIC | TMC 125 (aoyama) | - | - | 12.5 µg/mL
CN(Cc1nc2nc(N)nc(N)c2[nH]1)c1ccc(C(=O)N[C@@H](CCC(=O)O)C(=O)O)cc1 | - | inhibition | H37Rv | 12.5 µg/mL | BACTEC | 4%
O=C1/C(=C/c2ccc(Cl)cc2)c2ccccc2[C@@]12[C@H](c1ccc(Cl)cc1)C1CCCN1[C@]21C(=O)Nc2ccc([N+](=O)[O-])cc21 | - | MIC | - | - | visual reading | 12.5 µg/mL
O=C(CNc1ccccn1)Nn1cnc2ccc(S(=O)(=O)Nc3ccccn3)cc2c1=O | - | MIC bound | H37Rv | - | BACTEC | >12.5 µg/mL
Cc1ccc(/C=N/N=C(\N)c2ccncc2)c(C)c1 | - | MIC | H37Rv | - | - | 8 µg/mL
S=C(Nc1ccc(I)cc1)SCc1ccco1 | - | MIC bound | H37Rv | - | resazurin | >6.25 µg/mL
CC1CCCCN1C(=S)SCN1C(=O)c2ccccc2S1(=O)=O | - | MIC | H37Rv | - | - | 1.56 µg/mL
O=C1CC2(C(=O)O1)C1C(=O)OC(=O)C1C1c3ccccc3C=NN12 | - | inhibition | H37Rv | 12.5 µg/mL | BACTEC | -2%
C[C@]1(COc2ccc(N3CCC(Oc4ccc(OC(F)(F)F)cc4)CC3)cc2)Cn2cc([N+](=O)[O-])nc2O1 | - | MIC | CDC1551 | - | - | 0.2 µg/mL
O=C(CNC(=O)c1ccccc1)N/N=C/c1c(O)ccc2ccccc12 | - | MIC | H37Rv | - | BACTEC | 12.5 µg/mL
Cn1c(O)c(N=NC(=S)NCc2ccccc2)c2cc(OC(F)(F)F)ccc21 | - | EC90 | H37Rv | - | broth dilution / resazurin | >100 µg/mL
CCCCCCCCC12C(Cl)=C(Cl)C(Cl)(C(Cl)C1CCCCCCCC(=O)NCc1ccccc1)C2(Cl)Cl | - | inhibition | H37Rv | 6.25 µg/mL | resazurin | 2%
O=S(=O)(Nc1ccccn1)c1nnc2sc3ccccc3n12 | - | MIC | H37Rv | - | - | 2 µg/mL
O=C1C2=C(Nc3cc(Cl)ccc3N2)OC1c1c[nH]c2ccc(COc3ccccc3)cc12 | - | MIC bound | H37Rv | - | BACTEC | >12.5 µg/mL
NC(=S)N/N=C\c1c(C(=O)O)[nH]c2ccc(Cl)cc12 | - | MIC | H37Rv | - | broth dilution | 0.2 µg/mL